Results deposited as PubChem BioAssay AID504761 (Drosophila RNAi Screening Center, 2011).
Purpose: 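Fly genes whose silencing reduces dengue virus type 2 infection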 (primary screen). Cells: D.Mel-2 cells from Drosophila. Reagents: long dsRNA against Drosophila genes. Conditions: infection with dengue virus type 2; dose and infection time not stated. Detection: 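Cells stained for dengue envelope protein and imaged; percent of infected cells per well on duplicate plates, ranked by infection, with stained nuclei counted for cell number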. Scale: infection score: higher = more virus-infected cells; cell count: higher = more cells in the well. Rule for the call: 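Low infection ranks in the two replicates (chance level up to 0.065) followed by a retest with a 1.5-fold or larger significant decrease, p below 0.05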. Calls: active = confirmed: knock-down lowers infection; inactive = not picked or not confirmed.
In all, the deposit lists about 22,000 reagents; this is an unselected part of those with a known target gene and a result. Over the whole deposit, 116 (0.52%) are marked active. 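Calls depend on retest data that are not deposited; infection was ranked per plate without normalising between plates; the unit of the infection score is not given.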 Raw values vary from plate to plate and are shown uncorrected. Reagents against one gene are numbered here. Names joined by + are all predicted targets of the reagent. Not given: the amount of reagent, the time to read-out.

gene,reagent no.,"infection score, replicate 1","infection score, replicate 2","cell count, replicate 1","cell count, replicate 2",call
CecA2,1,6.06,,1717,327,inactive
Ccm3,1,9.39,7.6,6068,6423,inactive
Eaf,1,0.08,0.02,5289,4788,inactive
Eaf,2,8.73,13.8,6870,4775,inactive
Eaf,3,13.6,17.2,6569,6086,inactive
Eaf,4,34.7,8.75,6328,7038,inactive
CG12253,1,22.6,15,5898,6002,inactive
CG12253,2,10.9,28,6647,6124,inactive
CG7565,1,2.66,5.99,6463,6629,inactive
CG34435,1,2.36,1.69,6609,6859,inactive
egg,1,3.26,8.73,6297,3872,inactive
egg,2,2.98,5.16,6746,6255,inactive
egg,3,16.1,,5513,359,inactive
CheB38a,1,,10,552,7211,inactive
CheB38a,2,25.9,9.71,6012,6212,inactive
CG42365,1,3.71,3.59,6415,6915,inactive
AttA,1,12,8.94,6282,6753,inactive
AttA,2,17.3,2.94,6459,6234,inactive
CG13766,1,8.84,3.79,5704,6517,inactive
CG13766,2,16.1,22.4,4221,5039,inactive
stas,1,5.38,1.48,6730,6364,inactive
CG11970,1,13.8,11.2,6455,6230,inactive
Cdc45,1,3.64,,5829,242,inactive
Cdc45,2,1,2.84,6380,4901,inactive
mtt,1,7.79,6.31,6036,5867,inactive
mtt,2,2.71,0.65,6270,6002,inactive
mtt,3,4.88,12.9,6532,6454,inactive
mtt,4,7.51,4.44,6075,6821,inactive
Ubc10,1,15.3,21.5,6217,4816,inactive
Ubc10,2,3.34,1.54,5600,5572,inactive
oc,1,1.15,13.7,6350,6381,inactive
lap,1,3.1,12.8,6547,6406,inactive
lap,2,,,378,358,inactive
CG4733,1,,8.92,265,4989,inactive
janB,1,9.71,6.19,6332,5962,inactive
CG3281,1,,9.08,429,5344,inactive
CG3281,2,1.29,2.44,2395,2585,active
Eglp1,1,8.03,8.95,6811,6383,inactive
Rich,1,7.98,9.78,5851,6728,inactive
Rich,2,2.3,8.79,1783,1764,inactive
CG8229 + CG33199,1,0.9,1.78,6581,6364,inactive
CG8229 + CG33199,2,9.32,16.9,6350,6083,inactive
Vps53,1,7.88,33.8,6634,5550,inactive
CG32512,1,7.92,5.39,5873,6052,inactive
CG32512,2,3.94,1.39,4490,5627,inactive
CG32512,3,2.41,4.34,6012,6620,inactive
ssp7,1,4.57,7.42,6411,6238,inactive
I-2,1,1.78,2.39,5952,6279,inactive
I-2,2,0.73,3.43,5633,6653,inactive
if,1,12.1,11.1,5905,5984,inactive
CG7149,1,4.57,5.13,6101,5980,inactive
CG17490,1,5.8,7.18,6864,6987,inactive
CG17490,2,2.95,5.19,6545,6182,inactive
Rint1,1,12.9,14.5,5294,5387,inactive
Rint1,2,11.1,15,6270,5620,inactive
CG1801,1,6.36,7.62,5740,5614,inactive
Ir7d,1,6.42,5.43,5949,6132,inactive
mge,1,1.17,8.71,4805,5214,inactive
TotA,1,3.68,2.65,6220,5729,inactive
CG15109,1,2.3,3.78,6228,6327,inactive
CG15109,2,12.2,3.13,6457,6455,inactive
CG13654,1,5.5,2.25,6595,6663,inactive
Rpp20 + CG33932,1,3.38,2.86,4915,5800,inactive
CG12460 (retired record),1,4.83,5.65,4780,4870,inactive
CG13014,1,11.2,5.12,5996,7030,inactive
CG13014,2,7.67,4.57,6469,6041,inactive
Ir54a + sub,1,7,3.9,6660,6951,inactive
CG10195,1,5.47,4.8,6073,4933,inactive
Cad99C,1,2.46,1.45,5964,6638,inactive
Cad99C,2,2.06,5.62,6300,6619,inactive
OtopLb,1,6.46,6.55,5292,6896,inactive
OtopLb,2,10.1,6.52,6764,6076,inactive
twit,1,17.3,59.8,6161,4369,inactive
twit,2,1.36,2.49,6633,6176,inactive
